Pooled drug test results. Numbers come from NIAID ChemDB, via PubChem.

ECn: concentration that inhibits the pathogen or its effect by n%. ICn: concentration for n% inhibition. Fold resistance has wild type as its base. Lines come from different laboratories, so protocols vary. A number after MIC or MFC names an inhibition level or a share of isolates. An empty or dashed field is not shown. CCn: concentration that lowers growth or viability of the cells by n%. Zone: diameter of growth inhibition. Percent inhibition refers to the dose given; in toxicity tests it is the harm to the cells.

smiles	mutations	measure	strain or isolate	test	tested at	cells	organism	method	target	result
CC[C@H]1C(=O)Nc2ccc(F)cc2N1C(=O)OC(C)C	RT-N137A	fold resistance		target			HIV	nucleotide incorporation / radiometric	Reverse transcriptase	0.91
CO[C@H]1/C=C/O[C@@]2(C)Oc3c(C)c(O)c4c(O)c(c(/C=N/N(c5ccccc5)c5ccccc5)c(O)c4c3C2=O)NC(=O)/C(C)=C\C=C\[C@H](C)[C@H](O)[C@@H](C)[C@@H](O)[C@@H](C)[C@H](OC(C)=O)[C@@H]1C		CC50		toxicity		VERO				6.91 µg/mL
CC[C@H]1C[C@]1(NC(=O)[C@@H]1C[C@@H]2CN1C(=O)[C@H](C(C)(C)C)NC(=O)OCC(C)(C)CCCCc1cccc3c1CN(C3)C(=O)O2)C(=O)NS(=O)(=O)C1CC1		IC90		host protein				substrate cleavage	Plasmin	>100 µM
O=[N+]([O-])c1ccc2oc([N+](=O)[O-])cc2c1		CC50		toxicity		VERO				0.31 µg/mL
O=C(Nc1nnc(NCCNc2ccccc2)s1)c1cc2ccccc2s1		IC50		target			Human cytomegalovirus		Polymerase	>25 µM
CCCNc1nc2c(s1)c1c(O)c3c(O)c(C)c4c(c32)C(=O)[C@@](C)(O/C=C/[C@H](OC)[C@@H](C)[C@@H](OC(C)=O)[C@H](C)[C@H](O)[C@H](C)[C@@H](O)[C@@H](C)/C=C/C=C(/C)C(=O)N1)O4		CC50		toxicity		VERO				>10 µg/mL
CCc1c[nH]c(=O)[nH]c1=O		IC50	RH	target			Toxoplasma gondii		Uracil phosphoribosyltransferase	>2000 µM
CO[C@H]1/C=C/O[C@@]2(C)Oc3c(C)c(O)c4c(O)c(c(/C=N/Nc5ccc([N+](=O)[O-])cc5[N+](=O)[O-])c(O)c4c3C2=O)NC(=O)/C(C)=C\C=C\[C@H](C)[C@H](O)[C@@H](C)[C@@H](O)[C@@H](C)[C@H](OC(C)=O)[C@@H]1C		CC50		toxicity		VERO				13.34 µg/mL
O=c1ccnc[nH]1		IC50	RH	target			Toxoplasma gondii		Uracil phosphoribosyltransferase	>2000 µM
Cc1cn([C@@H]2O[C@H](CO[Si](C)(C)C(C)(C)C)C3(OS(=O)(=O)C=C3N)[C@H]2O[Si](C)(C)C(C)(C)C)c(=O)n(C)c1=O	RT-N137H	IC50		target			HIV	nucleotide incorporation / radiometric	Reverse transcriptase	1 µM
O=C1CC(=O)NC(=O)N1		IC50	RH	target			Toxoplasma gondii		Uracil phosphoribosyltransferase	>2000 µM
O=c1cc(-c2ccc(O)cc2)oc2cc(O[C@@H]3O[C@H](CO)[C@@H](O)[C@H](O)[C@H]3OS(=O)(=O)O)cc(O)c12		IC50		host protein			Molluscum contagiosum virus		Topoisomerase	>200 µM
CC1(C)S[C@H]([C@H](NC(=O)Cc2ccccc2)C(=O)NCc2ccccc2)N[C@H]1C(=O)NCCNC(=O)[C@@H]1N[C@@H]([C@H](NC(=O)Cc2ccccc2)C(=O)NCc2ccccc2)SC1(C)C		IC50		host protein			Sus domesticus	nucleotide incorporation	Pepsin	>500 µM
CCN(CCNc1ccc(C)c2sc3ccccc3c(=O)c12)CC(C)(C)O		CC50		toxicity		VERO				13.75 µg/mL
O=c1[nH]cccc1O		IC50	RH	target			Toxoplasma gondii		Uracil phosphoribosyltransferase	>2000 µM
O=C(Nc1nnc(NCCc2ccccc2)s1)c1ccc(S(=O)(=O)F)cc1		IC50		target			Human cytomegalovirus		Polymerase	>25 µM
CCN(CC)CCNc1ccc(CO)c2oc3ccc(OS(=O)(=O)c4ccc(C)cc4)cc3c(=O)c12		CC50		toxicity		VERO				0.79 µg/mL
Nc1cc(=O)[nH]c(=S)[nH]1		inhibition	RH	target	2000 µM		Toxoplasma gondii		Uracil phosphoribosyltransferase	<10%
CO[C@@H]1[C@H](OC(=O)NC(=O)CCl)CC[C@]2(CO2)[C@H]1[C@@]1(C)O[C@@H]1CC=C(C)C		inhibition		culture	0.0005 µg/mL	RK-13	Encephalitozoon intestinalis			71.2%
O=C(C1CCCCC1)N1C[C@H](CN2CCC(c3ccccc3)CC2)[C@@H](c2ccccc2)C1	CCR5-Y37A	IC50		target				radiometric	CCR5	0.13 µM
O=c1cnn([C@@H]2O[C@H](CO)[C@@H](O)[C@H]2O)c(=O)[nH]1		EC90	Type 1 (Hawaii)	culture		VERO	Dengue virus	virus yield		3.3 µg/mL
CCn1cc(C(=O)O)c(=O)c2cc(F)c(N3CCNCC3)nc21		CC50		toxicity		VERO				>10 µg/mL
CO[C@H]1[C@@H](OC(=O)/C=C/C=C/C=C/C=C/C(=O)O)CC[C@@]2(CO2)[C@@H]1[C@@]1(C)O[C@@H]1CC=C(C)C		inhibition		culture	0.00001 µg/mL	RK-13	Encephalitozoon intestinalis			33.2%
Nc1ccccc1O[C@@H]1O[C@H](C(=O)O)[C@@H](O)[C@H](O)[C@H]1O		CC50		toxicity		HeLa				>200 µg/mL
O=C(Nc1nnc(NCCNc2ccccc2)s1)c1ccc2c(c1)C(=O)OC2=O		IC50		target			Human cytomegalovirus		Polymerase	<25 µM
Nc1nc2c(ncn2CCOCP(=O)(O)O)c(=O)[nH]1		inhibition	Chicago	culture	0.3 µg/mL		Measles virus	virus yield		90%
Cc1c(CN(C)c2cccc3c2CCCC3)cnc2nc(N)nc(N)c12		inhibition		culture	0.01 µg/mL	RK-13	Encephalitozoon intestinalis			21.3%
CCOc1ccc2ccccc2c1C(=O)Nc1nnc(NCc2ccc(OC)c(OC)c2)s1		IC50		target			Human cytomegalovirus		Polymerase	<25 µM
N[C@H]1[C@@H](O[C@@H]2[C@@H](O)[C@H](O[C@H]3OC[C@@H](O)[C@H](O)[C@H]3N)[C@@H](N)C[C@H]2N)O[C@H](CO)[C@@H](O)[C@@H]1O		CC50		toxicity		HeLa				>100 µg/mL
Nc1ccnc2c1ncn2[C@H]1C=C[C@@H](OCP(=O)(O)O)O1		EC90	13306 (TYPE 8)	culture			Adenovirus	virus yield		0.1 µg/mL
CC(C)C(=O)N1C[C@H](CN2CCC(c3ccccc3)CC2)[C@@H](c2ccccc2)C1	CCR5-W86A	fold resistance		target				radiometric	CCR5	6.92
C[C@H]1c2cccc(O)c2C(O)=C2C(=O)[C@]3(O)C(O)=C(C(N)=O)C(=O)[C@@H](N(C)C)[C@@H]3[C@@H](O)[C@@H]21		CC50		toxicity		VERO				>10 µM
CC(C)(C)OC(=O)CCNc1nnc(NC(=O)/C=C/c2ccccc2)s1		IC50		target			Human cytomegalovirus		Polymerase	<25 µM
Cc1ccc(NCCN(C)C)c2c(=O)c3cccc(O)c3sc12		CC50		toxicity		VERO				0.79 µg/mL
Nc1nccnc1C(=O)O		IC50	RH	target			Toxoplasma gondii		Uracil phosphoribosyltransferase	>2000 µM
O=C(CN1C(=O)CN=C(c2ccccc2)c2ccccc21)NCC1CC(Br)=NO1		inhibition		host protein	20 µM		Human	fluorescence	Cathepsin B	0%
C/C(=N\NC(=O)c1ccncc1)C(F)(F)F		CC50		toxicity		VERO				>62.5 µg/mL
C#CC[C@@H](C(=O)N[C@H](/C=C/C(=O)OCC)C[C@@H]1CCNC1=O)n1cccc(NC(=O)c2cc(C)on2)c1=O		EC50	Serotype 81	culture		H1-HELA	Rhinovirus	cytopathic effect / XTT		0.043 µM
C[C@H](Cc1ccc(O)c(O)c1)[C@@H](C)Cc1ccc(O)c(O)c1		MIC50	CCC 128-2000	culture			Candida albicans	broth dilution		125 µg/mL
CC(C)(CO)C(=O)SCCOP(=O)(NCc1ccccc1)OC[C@H]1O[C@@H](n2cnc3c(=O)[nH]c(N)nc32)[C@](C)(O)[C@@H]1O	L31M	fold resistance	GT1a	culture		Replicon cells	Hepatitis C virus	replicon		1.04
CO[P@](=O)(c1cc(C)cc(/C=C/C#N)c1)c1c(C(N)=O)[nH]c2ccc(Cl)c(F)c12		IC50		host protein			Human		DNA polymerase alpha	145.7 µM
CO[C@H]1[C@@H](O)[C@H](O)[C@H](OC[C@@]23C[C@@H]4[C@H](C)CC[C@H]4[C@@]4(C=O)C[C@@H]2C=C(C(C)C)[C@@]34C(=O)O)O[C@@H]1C		CC50		toxicity		HeLa				200 µg/mL
O=C(NNC(=S)Nc1ccc(S(=O)(=O)N2CCCCC2)cc1)c1ccncc1		CC50		toxicity		VERO				>62.5 µg/mL
CCN(C(=O)OCc1ccccc1)C1CCN(CC[C@](C)(CN(C)S(=O)(=O)c2ccccc2)c2ccccc2)CC1	CCR5-Y108A	IC50		target				radiometric	CCR5	1.01 µM
c1cc(CN2CCCNCCNCCCNCC2)ccc1CN1CCCNCCNCCCNCC1		IC50		host protein			Human	calcium flux	CXCR2	>25 µg/mL
O=C(Nc1nnc(NCc2cccc3ccccc23)s1)c1c(Cl)cccc1Cl		IC50		target			Human cytomegalovirus		Polymerase	<25 µM
CC1(C)S[C@H]([C@H](NC(=O)Cc2ccccc2)C(=O)NCc2ccccc2)N[C@H]1C(=O)N[C@H](Cc1ccccc1)[C@H](O)CC(=O)NCc1ccccc1		IC50		host protein			Human	HPLC	Renin	>500 µM
O=C1CN=C(c2ccccc2)c2ccccc2N1CCC1CC(Br)=NO1		inhibition		host protein	20 µM		Human	fluorescence	Cathepsin B	0%
CC(=O)OC[C@]12CCC(C)=C[C@H]1O[C@@H]1[C@H](O)[C@@H](OC(C)=O)[C@@]2(C)[C@@]12CO2		CC50		toxicity		HeLa				<10 µg/mL
Cc1ccc(NNc2cc(=O)[nH]c(=O)[nH]2)cc1Cl		CC50		toxicity		VERO				4.7 µg/mL
Nc1cc(=O)[nH]c(=O)[nH]1		Ki	RH	target			Toxoplasma gondii		Uracil phosphoribosyltransferase	2300 µM
CCOC(=O)Nc1cc2oc(=O)c(-c3ccccc3)nc2c(N)n1		inhibition		culture	10 µg/mL	RK-13	Encephalitozoon intestinalis			57.1%
COc1cc2oc(=O)ccc2cc1CC(O)C(C)(C)O		zone		culture	250 µg/disc		Pseudomonas aeruginosa	agar diffusion		8 mm
CCO/N=C/c1ccc(OCCC2CCN(c3ccc(C)nn3)CC2)cc1		EC50	1200 (ICAM-1 receptor group 33)	culture		KB	Rhinovirus	neutral red		0.001 µM
Nc1ccn(C[C@@H](CO)OCP(=O)(O)O)c(=O)n1		EC90	adenoid 75 (TYPE 5)	culture			Adenovirus	virus yield		2 µg/mL
Cc1c[nH]c(=O)[nH]c1=O		IC50	RH	target			Toxoplasma gondii		Uracil phosphoribosyltransferase	>2000 µM

The last 8 rows once more:

smiles,mutations,measure,strain or isolate,test,tested at,cells,organism,method,target,result
CC(=O)OC[C@]12CCC(C)=C[C@H]1O[C@@H]1[C@H](O)[C@@H](OC(C)=O)[C@@]2(C)[C@@]12CO2,,CC50,,toxicity,,HeLa,,,,<10 µg/mL
Cc1ccc(NNc2cc(=O)[nH]c(=O)[nH]2)cc1Cl,,CC50,,toxicity,,VERO,,,,4.7 µg/mL
Nc1cc(=O)[nH]c(=O)[nH]1,,Ki,RH,target,,,Toxoplasma gondii,,Uracil phosphoribosyltransferase,2300 µM
CCOC(=O)Nc1cc2oc(=O)c(-c3ccccc3)nc2c(N)n1,,inhibition,,culture,10 µg/mL,RK-13,Encephalitozoon intestinalis,,,57.1%
COc1cc2oc(=O)ccc2cc1CC(O)C(C)(C)O,,zone,,culture,250 µg/disc,,Pseudomonas aeruginosa,agar diffusion,,8 mm
CCO/N=C/c1ccc(OCCC2CCN(c3ccc(C)nn3)CC2)cc1,,EC50,1200 (ICAM-1 receptor group 33),culture,,KB,Rhinovirus,neutral red,,0.001 µM
Nc1ccn(C[C@@H](CO)OCP(=O)(O)O)c(=O)n1,,EC90,adenoid 75 (TYPE 5),culture,,,Adenovirus,virus yield,,2 µg/mL
Cc1c[nH]c(=O)[nH]c1=O,,IC50,RH,target,,,Toxoplasma gondii,,Uracil phosphoribosyltransferase,>2000 µM